Source: publication PMC10714399, “Open Source Antibiotics: Simple Diarylimidazoles Are Potent against Methicillin-Resistant Staphylococcus aureus” (ACS Infectious Diseases, 2023)

Assays:
[1] = system: MRC-5SV2 (human lung fibroblast cell line); test: Toxicity against MRC-5SV2; type: cell-based; settings: ratio TC50 (MRC-5)/MRSA MIC, rounded to the nearest integer
Description: (§1) ADME and toxicity for compounds were measured according to procedures outlined in the manuscript submitted in parallel to this one;2 other procedures were used for those compounds analysed by Monash University (in vitro ADME) or UCL (toxicity), both described in the main

[2] = system: PMM (primary mouse macrophages); test: Toxicity against PMM; type: cell-based; settings: ratio TC50 (PMM)/MRSA MIC, rounded to the nearest integer
Description: as §1

Row | SMILES | SI MRC5 [1] | SI PMM [2]
1 | c1ccc(-n2c(-c3ccccn3)nc3ccccc32)cc1 [compound 992] | 1 | 1
2 | FC(F)(F)c1ccc(-c2c(-c3ccccn3)nc3n2CCC3)cc1 [compound 1052] | 0 | 1
3 | Cc1ccn2c(CN(CC(C)C)c3cccc(C(F)(F)F)c3)c(-c3ccccn3)nc2c1 [compound 1033] | 0 | 0
4 | c1ccc(-c2nc3n(c2-c2ccncc2)CCC3)nc1 [compound 1072] | 1 | 1
5 | Cc1ccc2nc(-c3ccccc3)c(CNc3cccc(C(F)(F)F)c3)n2c1 [compound 1028] | 1 | 1
6 | CCN(c1ccc(F)cc1)c1c(-c2ccccn2)nc2ccccn12 [compound 981] | 1 | 1
7 | c1ccc(Cn2c(-c3ccccn3)nc3ccccc32)cc1 [compound 993] | 1 | 1
8 | Cc1ccc2nc(-c3ccccc3)c(CNc3ccc(F)cc3)n2c1 [compound 1027] | 1 | 1
9 | Fc1ccc(NCc2c(-c3ccccn3)nc3ccccn23)cc1 [compound 1019] | 1 | 1
10 | Clc1ccc(-c2c(-c3ccccn3)nc3n2CCC3)cc1 [compound 875] | 0 | 1
11 | Cc1ccc2nc(-c3ccccc3)cn2c1 [compound 1026] | 0 | 0
12 | Fc1cccc(-c2c(-c3ccccn3)nc3n2CCC3)c1 [compound 872] | 0 | 0
13 | c1ccc(-c2nc3ccccc3n2-c2ccc3occc3c2)nc1 [compound 991] | 1 | 1
14 | COc1ccn2cc(-c3ccccn3)nc2c1 [compound 856] | 0 | 0
15 | CCCN(c1ccc(F)cc1)c1c(-c2ccccn2)nc2ccccn12 [compound 982] | 1 | 0
16 | CS(=O)(=O)c1ccc2nc(-c3ccccn3)c(Nc3ccc(F)cc3)n2c1 [compound 1020] | 1 | 0
17 | Cc1ccn2cc(-c3ccccn3)nc2c1 [compound 1030] | 0 | 0
18 | COc1ccn2c(-c3ccc(F)cc3)c(-c3ccccn3)nc2c1 [compound 858] | 0 | 0
19 | Fc1ccc(-c2c(-c3ccccn3)nc3ccccn23)cc1 [compound 859] | 0 | 0
20 | Fc1ccc(Nc2c(-c3ccccn3)nc3ccccn23)cc1 [compound 987] | 0 | 1

Row | SMILES | SI MRC5 [1] | SI PMM [2]
21 | COc1ccc2nc(-c3ccccn3)c(N(C)c3ccc(F)cc3)n2c1 [compound 980] | 0 | 1
22 | N#Cc1ccc(-c2c(-c3ccccn3)nc3n2CCC3)cn1 [compound 1075] | 1 | 1
23 | COc1ccn2c(Nc3ccccc3F)c(-c3cnn(C)c3)nc2c1 [compound 855] | 1 | 1
24 | Nc1ccc(-c2c(-c3ccccn3)nc3n2CCC3)cc1 [compound 1074] | 0 | 0
25 | c1ccc(-c2nc3ccccc3n2-c2ccc(N3CCOCC3)cc2)nc1 [compound 995] | 1 | 1
26 | N#Cc1ccc(-c2c(-c3ccccn3)nc3n2CCC3)cc1 [compound 975] | 2 | 5
27 | Fc1cc(-c2c(-c3ccccn3)nc3n2CCC3)ccn1 [compound 1073] | 0 | 0
28 | N#CCc1ccc(-n2c(-c3ccccn3)nc3ccccc32)cc1 [compound 996] | 1 | 1
29 | CC(C)CN(c1ccc(F)cc1)c1c(-c2ccccn2)nc2ccccn12 [compound 983] | 10 | 4
30 | c1ccc(-c2nc3ccccc3n2-c2ccc(N3CCCCC3)cc2)nc1 [compound 994] | 0 | 0
31 | CC(=O)N(c1ccc(F)cc1)c1c(-c2ccccn2)nc2ccccn12 [compound 1021] | 1 | 1
32 | CCCCN(Cc1c(-c2ccccc2)nc2ccc(C)cn12)c1cccc(C(F)(F)F)c1 [compound 1029] | 0 | 0
33 | Fc1ccc(Nc2c(-c3ccccn3)nc3sccn23)cc1 [compound 984] | 0 | 1
34 | COc1ccn2c(-c3ccccc3)c(-c3ccccn3)nc2c1 [compound 860] | 0 | 0
35 | COc1cc(-c2c(-c3ccccn3)nc3n2CCC3)ccc1C#N [compound 1076] | 0 | 1
36 | Fc1ccc(N(CC2CC2)c2c(-c3ccccn3)nc3ccccn23)cc1 [compound 979] | 1 | 1
37 | N#Cc1ccc(-c2c(-c3ccccn3)nc3n2CCC3)cc1C(F)(F)F [compound 1077] | 1 | 1
38 | Fc1ccc(-c2c(-c3ccccn3)nc3n2CCC3)cc1 [compound 1053] | 0 | 0
39 | NC(=O)c1ccc(-n2c(-c3ccccn3)nc3ccccc32)cc1 [compound 989] | 1 | 1
40 | N#Cc1ccc(-n2c(-c3ccccn3)nc3ccccc32)cc1 [compound 990] | 1 | 1
